A mixed list of measured activities; the numbers were collected in NIAID ChemDB.

Common to all: growth or infection tests; organism: Herpes simplex virus 1; endpoint: EC50

An empty or dashed field is not shown. ECn: concentration that inhibits the pathogen or its effect by n%. Neighbouring rows are from separate reports.

structure	read by	strain or isolate	cell line	value
CCOC(=O)P(=O)(O)OCCOCn1cnc2c(=O)[nH]c(N)nc21	cytopathic effect	L2/R	VERO	331 µM
N#Cc1c(N)n(COCCO)c2ncnc(N)c12	ELISA		HFF	>100 µM
COc1cc([C@@H]2c3cc(O)c(O)cc3C[C@H]3COC(=O)[C@@H]32)cc(OC)c1OC		ITOH	MRC-5	0.234 µg/mL
Nc1ccc2c(c1)nc(Cl)n2[C@@H]1O[C@H](CO)[C@@H](O)[C@H]1O	ELISA	KOS	HFF	>100 µM
C[C@H](Cc1ccc2c(c1)OCO2)[C@H](C)Cc1ccc2c(c1)OCO2		1		68.71 µg/mL
O=C(O)P(=O)(O)O	cytopathic effect	KOS	HEL	33.5 µg/mL
OC[C@H]1O[C@@](CO)(O[C@H]2O[C@H](CO)[C@@H](O)[C@H](O)[C@H]2O)[C@@H](O[C@H]2O[C@H](CO)[C@@H](O)[C@H](O)[C@H]2O)[C@@H]1O	cytopathic effect	KOS	HeLa	>200 µg/mL
O=c1c(O)c(-c2ccccc2)oc2cc(O)cc(O)c12			VERO	>15 µg/mL
O=c1[nH]c(=O)n([C@H]2C[C@H](O)[C@@H](CO)O2)c[c]1[Hg+].O=c1cc[nH]c(=S)[nH]1	virus yield	KOS	KB	0.04 µg/mL
O=c1[nH]c(=O)n([C@H]2C[C@H](O)[C@@H](COP3(=O)OCc4cc(Cl)ccc4O3)O2)cc1/C=C/Br	plaque count	KUPKA (TK+)	VERO	0.21 µg/mL
NC(=O)c1c(Br)n(COC(CO)CO)c2ncnc(N)c12	ELISA		HFF	>100 µM
COC(=O)OC1CCC2(C)C(=CCC3C2CCC2(C)C(C(C)CCCC(C)C)CCC32)C1	cytopathic effect	KOS	HeLa	>200 µg/mL
COc1ccc(-c2cc(=O)c3c(O)cc(O)cc3o2)cc1		TK-	VERO	>20 µg/mL
CC(=O)O[C@H]1CC[C@@]2(C)C(=CC[C@@H]3[C@@H]2CC[C@]2(C)C(=O)[C@@H](OC(C)=O)C[C@@H]32)C1	virus yield		VERO	489 µM
COC(=O)[C@H](C)NP(=O)(OC[C@H]1C/C1=C\n1cnc2c(N)nc(N)nc21)Oc1ccccc1	ELISA		BSC-1	>100 µM
Nc1ncnc2c1ncn2CCOCP(=O)(O)O	cytopathic effect	KOS HPMPC-resistant	HEL	7.4 µg/mL
NC(=O)c1c(Br)n(COCCO)c2ncnc(N)c12	ELISA		HFF	>100 µM
COC(=O)[C@@H]1[C@H]2C[C@H]3c4[nH]c5ccccc5c4CCN3C[C@@H]2CC[C@@H]1O	cytopathic effect	KOS	HeLa	>200 µg/mL
COc1cc([C@@H]2c3cc4c(cc3[C@H](O)[C@H]3COC(=O)[C@H]23)OCO4)cc(OC)c1OC		ITOH	MRC-5	0.009 µg/mL
O=C1CCC(c2ccccc2)C(=O)N1CCCN1CCN(c2ncccn2)CC1	MTT		VERO 76	>98 µM
CCCCCC(=O)O[C@H]1C[C@H](n2cc(/C=C/Br)c(=O)[nH]c2=O)O[C@@H]1COP1(=O)OCc2cccc(C)c2O1	plaque count	KUPKA (TK+)	VERO	0.54 µg/mL
C[C@]12CCC3C(CC[C@H]4C[C@@H](O)CC[C@]34C)C1C[C@@H](Br)C2=O	virus yield		VERO	97.5 µM
O=c1[nH]c(=O)n([C@H]2C[C@H](O)[C@@H](COP3(=O)OCc4cc(-c5ccccc5)ccc4O3)O2)cc1/C=C/Br	plaque count	KUPKA (TK+)	VERO	0.27 µg/mL
N#Cc1cn([C@@H]2O[C@H](CO)[C@@H](O)[C@@H]2O)c2ncnc(N)c12	virus yield	S-148	BSC-1	<3.5 µM
C[C@]12CC[C@H](O)CC1=CCC1C2CC[C@]2(C)C(=O)[C@H](Br)CC12	virus yield		VERO	19.1 µM
Nc1ncnc2c1ncn2[C@@H]1[Se][C@H](CCO)[C@@H](O)[C@H]1O	MTT		VERO	2.9 µM
COc1cc(C2c3cc4c(cc3C[C@H]3COC(=O)[C@H]23)OCO4)cc(OC)c1OC		A4-3	MRC-5	0.032 µg/mL
Cn1cnc2nc(NCCO)nc(NCc3ccccc3)c21	ELISA	KOS	HFF	>100 µM
COC(=O)[C@H](C)NP(=O)(OC[C@H]1C/C1=C/n1cnc2c(OC)nc(N)nc21)Oc1ccccc1	ELISA		BSC-1	2 µM
COCCOCn1cc(C(N)=S)c2c(N)ncnc21	ELISA	KOS	HFF	85 µM
Nc1ccn(C[C@@H](CO)OCP(=O)(O)O)c(=O)n1	cytopathic effect	KOS	U138-MG	0.58 µg/mL
COc1cc2c(cc1O)C[C@H]1c3c(cc(O)c(OC)c3-2)CCN1C	cytopathic effect	KOS	HeLa	>200 µg/mL
Nc1ncnc2c1ncn2[C@@H]1O[C@H](CO)[C@@H](O)[C@@H]1O	cytopathic effect	KOS S2242-resistant	HEL	17.3 µg/mL
O=[N+]([O-])c1ccc2nc(Cl)[nH]c2c1	ELISA	KOS	HFF	>21 µM
O=c1[nH]c(=O)n([C@H]2C[C@H](O)[C@@H](CO)O2)c[c]1[Hg+].O[C@H](C[S-])[C@H](O)CS	virus yield	KOS	HELA TK-	0.403 µg/mL
C[C@H](Cc1ccc2c(c1)OCO2)[C@@H](C)Cc1ccc2c(c1)OCO2		1		111.1 µg/mL
Cc1cc(C)c2c(c1)COP(=O)(OC[C@H]1O[C@@H](n3cc(/C=C/Br)c(=O)[nH]c3=O)C[C@@H]1O)O2	plaque count	KUPKA (TK+)	VERO	1.1 µg/mL
O=C1CCC(c2ccccc2)C(=O)N1CCCCN1CCN(c2ccccc2O)CC1	MTT		VERO 76	>100 µM
C[C@]12CC[C@H](O)CC1=CC[C@@H]1[C@@H]2CC[C@@]2(C)[C@H]1CCC21OCCO1	virus yield		VERO	629 µM
Nc1ncc2c(ncn2COC(CO)CO)n1	cytopathic effect	KOS ACV-resistant	HEL	0.11 µg/mL
Nc1ncnc2c1ncn2[C@@H]1[Se][C@H](CO)[C@@H](O)[C@H]1O	MTT		VERO	>100 µM
Cc1cc(-c2ccc(N=Nc3c(S(=O)(=O)O)cc4cc(S(=O)(=O)O)cc(N)c4c3O)c(C)c2)ccc1N=Nc1c(S(=O)(=O)O)cc2cc(S(=O)(=O)O)cc(N)c2c1O	cytopathic effect	KOS	HeLa	15 µM
COC(=O)[C@H](C)NP(=O)(OCC1C/C1=C/n1cnc2c(N)ncnc21)Oc1ccccc1	ELISA		BSC-1	25 µM
O=C1CCC(c2ccccc2)C(=O)N1CCCCN1CCN(c2ccccn2)CC1	MTT		VERO 76	>98 µM
CC(=O)O[C@H]1CC[C@]2(C)C3CC[C@@]4(C)C(CCC45OCCO5)C3CC[C@H]2C1	virus yield		VERO	77.6 µM
O=c1[nH]c(=O)n([C@H]2C[C@H](O)[C@@H](CO)O2)c[c]1[Hg+].OCC[S-]	virus yield	KOS	HELA TK-	0.074 µg/mL
NC(=O)c1c(N)n(COCCO)c2ncnc(N)c12	ELISA		HFF	>100 µM
Nc1nc(=O)n([C@@H]2O[C@H](CO)[C@@H](O)[C@@H]2F)cc1I	cytopathic effect	KOS	HEL	0.04 µg/mL
N#Cc1c(Br)n(COC(CO)CO)c2ncnc(N)c12	ELISA		HFF	>100 µM
Nc1nc(N)c2ncn(CCOCP(=O)(O)O)c2n1	cytopathic effect	KOS HPMPC-resistant	HEL	2.1 µg/mL
CC(C)[C@@H](C)/C=C/[C@@H](C)[C@H]1CC[C@H]2C3=CC=C4C[C@@H](O)CC[C@]4(C)[C@H]3CC[C@]12C	cytopathic effect	KOS	HeLa	>200 µg/mL
CC(=O)O[C@H]1CC[C@@]2(C)C(=CC[C@@H]3[C@@H]2CC[C@]2(C)C(=O)CC[C@@H]32)C1	virus yield		VERO	176 µM
O=c1[nH]c(=O)n([C@H]2C[C@H](O)[C@@H](CO)O2)cc1/C=C/Br	cytopathic effect	KOS PMEA-resistant	HEL	0.003 µg/mL

Again, the opening 6 rows:

structure,read by,strain or isolate,cell line,value
CCOC(=O)P(=O)(O)OCCOCn1cnc2c(=O)[nH]c(N)nc21,cytopathic effect,L2/R,VERO,331 µM
N#Cc1c(N)n(COCCO)c2ncnc(N)c12,ELISA,,HFF,>100 µM
COc1cc([C@@H]2c3cc(O)c(O)cc3C[C@H]3COC(=O)[C@@H]32)cc(OC)c1OC,,ITOH,MRC-5,0.234 µg/mL
Nc1ccc2c(c1)nc(Cl)n2[C@@H]1O[C@H](CO)[C@@H](O)[C@H]1O,ELISA,KOS,HFF,>100 µM
C[C@H](Cc1ccc2c(c1)OCO2)[C@H](C)Cc1ccc2c(c1)OCO2,,1,,68.71 µg/mL
O=C(O)P(=O)(O)O,cytopathic effect,KOS,HEL,33.5 µg/mL